Publication doi:10.1101/2025.10.29.685445 (bioRxiv, 2025)

Columns and labels:
[1] = target: T1, HCoV-OC43 S-2P (HCoV-OC43, spike GenBank AIL49484, UniProt A0A0B4N7I3, stabilised); assay: ELISA; conditions: both partners purified
T1 construct: also called soluble HCoV-OC43 S; source: Expi293F, transfected, purified from supernatant (HisTrap, Superdex)

[2] = target: HCoV-OC43 S, full-length, cell surface-expressed (HCoV-OC43, spike GenBank AIL49484, UniProt A0A0B4N7I3); assay: cell-based or functional assay
[3] = target: T2, HCoV-OC43 S1-CTD (residues 318-608), Fc- and His-tagged (HCoV-OC43, spike GenBank AIL49484, UniProt A0A0B4N7I3); assay: SPR; conditions: both partners purified
T2 construct: also called HCoV-OC43 RBD; not shown: Fc-tag, C-terminal, kept; 8X HisTag, C-terminal, kept

Row | Binder | binding result [1] | IC50 of neutralisation of authentic HCoV-OC43 virus on Huh7 cells [2] [µg/mL] | Kd [3] [nM]
1 | H501-008 IgG (antibody, V domains shown, also called H501–08; mAb H501–008; copies: 2 + 2) VH: QVQLVQSGGGVVQPGRSLRLSCAVSGFTLDRYAMHWVRQAPGKALEWVALMSADGREQYYAESVKGRFTFSRDSSKNTLYLQMHNLRTDDSSVYFCAREGPMYYDAWSGRSYYNNYALDVWGRGTTVAVSS VL: QSVLTQPPSVSAAPGQTVTISCSGSSSNIGDNYVSWYQQVPGTAPRLLVYDNNRRPLGIPDRFSGSKSGTSATLAIAGLQTGDEADYYCGTWDSSLSAGVFGGGTKLTVV | binds | > 10 | 
2 | H501-008 Fab (Fab, V domains shown, also called H501–08 Fab) VH: QVQLVQSGGGVVQPGRSLRLSCAVSGFTLDRYAMHWVRQAPGKALEWVALMSADGREQYYAESVKGRFTFSRDSSKNTLYLQMHNLRTDDSSVYFCAREGPMYYDAWSGRSYYNNYALDVWGRGTTVAVSS VL: QSVLTQPPSVSAAPGQTVTISCSGSSSNIGDNYVSWYQQVPGTAPRLLVYDNNRRPLGIPDRFSGSKSGTSATLAIAGLQTGDEADYYCGTWDSSLSAGVFGGGTKLTVV |  |  | ~25
